Experimental data: PubChem BioAssay AID1259414 (Drosophila RNAi Screening Center, 2018)
Screen: 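Host factors increasing or decreasing Wolbachia levels in cultured fly cells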 (primary screen). System: Drosophila JW18 cells infected with Wolbachia. Reagent: long dsRNA against Drosophila genes, 0.25 µg dsRNA per well of a 384-well plate. Time to read-out: 5 days. Conditions: cells persistently infected with Wolbachia before knock-down; no added drug. Detection: 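Automated imaging of bacterial rRNA staining divided by host cell count, reported as plate-normalised robust z-score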. Reading the numbers: Wolbachia per cell robust z: higher = more Wolbachia per host cell than the plate typical. Rule for the call: 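Active if absolute robust z reaches 1.5 in two or more of three replicates, leaving out multi- or no-target dsRNAs, genes unexpressed in JW18 and A1 wells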.
The screen tested about 24,000 reagents; below is a random part of those that have a named target and a result. Of all reagents, about 1,210 (5%) are marked active. 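Inactive calls also include excluded dsRNAs with several or no targets, genes unexpressed in JW18, and well A1, regardless of score.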 Unmarked entries are inactive. Names joined by + are all predicted targets of the reagent.

| target gene | dsRNA | Wolbachia per cell robust z, rep 1 | Wolbachia per cell robust z, rep 2 | Wolbachia per cell robust z, rep 3 |
| --- | --- | --- | --- | --- |
| CG40472 + ND-AGGG | DRSC37805 | 1.92 | 0.894 | 0.77 |
| CG34426 | DRSC09977 | -0.877 | -3.44 | 0.306 |
| CG34426 | DRSC41476 | -2.04 | 0.629 | -1.93 |
| CG32240 | DRSC08093 | -0.431 | 0.0521 | 0.09 |
| Abcd3 | DRSC19488 | -1.33 | -1.17 | -2.16 |
| Abcd3 | DRSC29341 | 0.717 | -5.3 | 1.32 |
| CG7970 | DRSC08605 | 0.639 | 0.0112 | 0.919 |
| CG7970 | DRSC26090 | -0.0319 | 0.0618 | -0.637 |
| Pmm2 | DRSC09780 | 0.587 | 0.00231 | 0.153 |
| Pmm2 | DRSC28987 | 0.0648 | -0.291 | -0.588 |
| PH4alphaNE1 | DRSC16546 | 0.104 | -0.636 | 0.00468 |
| PH4alphaNE1 | DRSC26942 | -0.042 | 0.33 | 1.76 |
| T48 | DRSC16878 | 0.184 | 0.329 | 1.09 |
| CG34290 | DRSC38813 | -0.848 | -0.567 | -0.216 |
| CG13527 | DRSC04169 | -6.09 | -3.03 | 0.0594 |
| CG10444 | DRSC05990 | 2.15 | 0.239 | 0.983 |
| CG31272 | DRSC16058 | 0.34 | -1.82 | -3.93 |
| CG31559 | DRSC12172 | 0.268 | -0.225 | -0.378 |
| CG31559 | DRSC12270 | -0.569 | -0.187 | -2.45 |
| CG8728 | DRSC07251 | 0.321 | -0.276 | 0.316 |
| CG18170 + CG33791 | DRSC08523 | 0.533 | -1.33 | -0.317 |
| CG18170 + CG33791 | DRSC24614 | -2.09 | 2.04 | 0.606 |
| CG18170 + CG33791 | DRSC39043 | 0.704 | 0.0678 | 0.372 |
| CG18170 + CG33791 | DRSC41266 | 0.138 | 0.134 | -2.58 |
| CG8230 | DRSC05931 | -2.32 | 0.187 | 0.548 |
| nAChRalpha5 | DRSC01946 | -6.5 | -2.14 | -2.24 |
| nAChRalpha5 | DRSC01947 | 1.44 | 0.789 | 0.98 |
| nAChRalpha5 | DRSC22785 | -0.0109 | 1.75 | 0.275 |
| nAChRalpha5 | DRSC29085 | -1.57 | -1.1 | -1.52 |
| CG5160 | DRSC02821 | 0.464 | 0.193 | 1.13 |
| CG5160 | DRSC28456 | 0.331 | -0.29 | 1.19 |
| shu | DRSC04484 | -0.984 | 0.405 | -1.66 |
| shu | DRSC27390 | -1.76 (active) | -0.966 | -2.36 |
| Sxl | DRSC18721 | -0.158 | -0.426 | -3.46 |
| Sxl | DRSC18722 | -2.9 | -6.02 | -3.05 |
| Sxl | DRSC21490 | -1.73 | -1.16 | -1.05 |
| Sxl | DRSC28896 | -0.0305 | 0.336 | -0.599 |
| t-cup | DRSC01254 | -0.859 | -0.47 | -0.148 |
| t-cup | DRSC27514 | -1.49 | -1.88 | -0.635 |
| sxc | DRSC04911 | -0.693 | 0.587 | -1.47 |
| CG31798 | DRSC01702 | 0.539 | 0.0895 | -0.651 |
| CG31798 | DRSC27963 | 0.341 | 0.204 | 2.09 |
| CG10898 | DRSC14279 | 1.14 | -0.361 | 0.292 |
| Pp1-87B | DRSC16794 | 4.79 (active) | 3.81 | 5.8 |
| Pp1-87B | DRSC23299 | -2.69 | -1.43 | 0.437 |
| Pp1-87B | DRSC27290 | -1.56 | -1.18 | -1.5 |
| CRAT | DRSC12523 | -7 | 0.0571 | 0.685 |
| CRAT | DRSC29377 | 1.49 | 0.156 | 0.609 |
| CG33702 | DRSC38848 | -1.89 | -0.357 | 0.663 |
| CG1545 | DRSC21532 | -1.31 | -1.4 | -0.089 |
| CG4000 | DRSC15535 | -1.45 | 1.01 | 0.659 |
| CG4000 | DRSC21547 | 0.358 | -0.178 | -0.0434 |
| CG4000 | DRSC25094 | -0.0235 | 1.05 | 0.0893 |
| Eig71Eb | DRSC11149 | 0.408 | -0.985 | -1.41 |
| Ste:CG33241 + Ste12DOR + Ste:CG33245 + 10 more | DRSC26515 | -2.92 | -0.351 | -1.21 |
| CG44774 | DRSC18342 | 0.537 (active) | -6.98 | -4.93 |
| CG44774 | DRSC27595 | -0.204 | -0.31 | 0.245 |
| CG17321 | DRSC02598 | -0.028 | 0.312 | -1.59 |
| CG17321 | DRSC25649 | -0.0931 | -0.216 | 0.72 |
| CG33626 | DRSC37839 | -2.18 | -0.835 | 0.321 |
| CG14882 | DRSC15006 | -2.11 | 0.0209 | -0.265 |
| CG14882 | DRSC28318 | -1.04 | -2.84 | -0.399 |
| Rab21 | DRSC20968 | 0.598 | 0.591 | 0.769 |
| Rab21 | DRSC28617 | 1.24 | 0.787 | 0.62 |
| VGAT | DRSC07160 | 1.26 | 0.819 | 1.19 |
| l(2)03659 | DRSC07269 | -0.631 | -0.378 | -3.37 |
| l(2)03659 | DRSC07638 | 0.0336 | 0.0946 | -1.13 |
| milt | DRSC00965 | -0.992 | -1.27 | -1.93 |
| milt | DRSC00966 | -0.576 | -0.738 | -0.705 |
| milt | DRSC02281 | -0.252 | 0.543 | -0.66 |
| milt | DRSC28963 | 0.498 | -0.875 | -2.03 |
| milt | DRSC41278 | 0.191 | -1.7 | -0.127 |

Part of the list above, reduced to “Wolbachia per cell robust z, rep 1”:
CRAT [DRSC29377]: 1.49
CG33702 [DRSC38848]: -1.89
CG1545 [DRSC21532]: -1.31
CG4000 [DRSC15535]: -1.45
CG4000 [DRSC21547]: 0.358
CG4000 [DRSC25094]: -0.0235
